Reference: PubChem BioAssay AID504761 (Drosophila RNAi Screening Center, 2011)
Assay: 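Fly genes whose silencing reduces dengue virus type 2 infection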 (primary screen). Cells: D.Mel-2 cells from Drosophila. Reagent: long dsRNA against Drosophila genes. Treatment: infection with dengue virus type 2; dose and infection time not stated. Read-out: 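Per well on two replicate plates, imaging gave the percent of cells positive for viral envelope protein, ranked by infection, and a nuclear count of cells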. Direction: infection score: higher = more virus-infected cells; cell count: higher = more cells in the well. Call rule: 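Low infection ranks in the two replicates (chance level up to 0.065) followed by a retest with a 1.5-fold or larger significant decrease, p below 0.05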. Calls: active = confirmed: knock-down lowers infection; inactive = not picked or not confirmed.
In all, the deposit lists about 22,000 reagents; this is a random part of those that have a named target and a result. Of all reagents, 116 (0.52%) are marked active. 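Calls depend on retest data that are not deposited; infection was ranked per plate without normalising between plates; the unit of the infection score is not given.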 Raw values vary from plate to plate and are shown uncorrected. The numbers tell different reagents against one gene apart. Names joined by + are all predicted targets of the reagent. The record does not give: the amount of reagent, the time to read-out.

no.	gene	dsRNA no.	infection score, replicate 1	infection score, replicate 2	cell count, replicate 1	cell count, replicate 2	Outcome
1	numb	1	20.1	15.1	5719	6124	inactive
2	CG8635	1	8.18	10.1	6769	6493	inactive
3	CG8635	2	14.9	14.4	4765	3698	inactive
4	CG15209	1	11	11.6	6446	6097	inactive
5	CG17294	1	3.36	16.4	6725	5204	inactive
6	CG11696	1	4.28	1.95	6405	6315	inactive
7	Jupiter	1	4.65	4.63	7189	6969	inactive
8	Jupiter	2	22.8	27.6	4222	4517	inactive
9	Jupiter	3	3.35	10.4	6352	5780	inactive
10	Sp212	1	2.9	2.87	6659	6788	inactive
11	Sp212	2	14.4	16.6	4569	5433	inactive
12	Or85a	1	15.4	9.11	4935	6446	inactive
13	CG4597	1	1.44	2.4	6306	6253	inactive
14	CG7950 + Rpp14a	1	3.54	7.88	6471	6831	inactive
15	CG7950 + Rpp14a	2	9.41	0.88	1689	679	inactive
16	Lerp	1	0.89	1.55	676	1094	inactive
17	Lerp	2	13	9.83	3934	3020	inactive
18	Lerp	3	10	16.8	5370	5510	inactive
19	Lerp	4	4.69	3.7	4943	3540	inactive

The list goes on (2 carried over from the part before).
no.	gene	dsRNA no.	infection score, replicate 1	infection score, replicate 2	cell count, replicate 1	cell count, replicate 2	Outcome
18	Lerp	3	10	16.8	5370	5510	inactive
19	Lerp	4	4.69	3.7	4943	3540	inactive
20	CG3339	1	1.57	0.73	6256	5205	inactive
21	CG3339	2	7.41	2.86	5010	7055	inactive
22	obst-F	1	2.31	5.59	6743	6659	inactive
23	obst-F	2	2.9	8.93	6545	5747	inactive
24	nAChRalpha1	1	1.44	0.77	5558	5312	inactive
25	nAChRalpha1	2	3.29	2.48	3434	3831	inactive
26	nAChRalpha1	3	1.34	0.37	6585	5874	active
27	nAChRalpha1	4	2.83	5.54	6395	6013	inactive
28	CG13908 (retired record)	1	2.08	1.78	6158	5857	inactive
29	CG13908 (retired record)	2	17.1	9.96	6367	6598	inactive
30	CG1394	1	15	6.48	6038	6512	inactive
31	CG1394	2	3.08	6.66	6144	6055	inactive
32	CG33770	1	4.01	3.94	6738	6704	inactive
33	CG32847	1	1.6	2.06	5566	5641	inactive
34	CG15147	1	2.6	0.94	6341	6794	inactive
35	CG15147	2	5.23	5.5	6215	6657	inactive
36	CG15147	3	2.87	14	6758	6196	inactive
37	Fmo-1	1	24	37.4	6263	3560	inactive
38	Fmo-1	2	3.55		705	216	inactive
39	bft (retired record)	1	4.94	23	5390	4866	inactive
40	bft (retired record)	2	16.2	13.5	5701	5789	inactive
